Assay results: patent US20240366728A1 (Carmot Therapeutics Inc., priority 2023, published 2024)

Assay: general procedure: Fmoc solid-phase peptide synthesis; Rink Amide ProTide Resin (LL) or preloaded Wang (LL) resin; DIC/Oxyma
Settings: whole synthesis, scale 0.15 mmol

For “Exendin-Phe1 (FGEGTFTSDLSKQMEEEAVRLFIEWLLAGGPSSGAPPPS; C-terminal amide)”, the “final HPLC purity” value (214 nm) was 96.0% and the isolated mass was 27.7 mg.
